Target: m5 (UniProt Q05320)
Assay: BLI
Details: monovalent Fab

Substance | Kd (parent: 0.21) [nM] | Kd (parent: 75) [nM]
mAb114 Fab (wild-type) VH:D42G; VH:A68T; VH:S79Y; VL:V43A | 0.061 | –
mAb114 unmutated common ancestor (UCA) Fab (wild-type) VH:P60A; VH:G61D; VL:V43A | – | 480
